Measured values as given in patent US20040037837A1 (priority 2000, published 2004).

How the values were obtained:
[1] = tested on: autologous monocyte-derived macrophages infected with M. bovis BCG, M. tuberculosis or rVV expressing Ag85A; assay type: cell-based, human
[2] = tested on: THP-1 cells pulsed with peptide; experiment: 51Cr release cytotoxicity assay of peptide specific CD8+ T cells against peptide pulsed THP-1 cells; assay type: cell-based, human; settings: 50:1 E:T ratio; label = peptide pulsed on targets; STCL after 2 weeks of stimulation

In the case of “FMP M158-66: HLA-A*201-restricted influenza matrix epitope [reference compound]”, the “recognition and lysis of M. bovis BCG, M. tuberculosis and rVV85A infected macrophages by peptide specific CTLs” value [1] is reported as “no recognition” and the “specific lysis of peptide pulsed THP-1 cells by P242-250 reactive CD8^+ T cells” value [2] is reported as “no significant lysis”.
